Compound potency records, mixed from different reports. Data source: NIAID ChemDB in PubChem.

All rows: whole-cell or culture tests

a–b is a range or a potency band. MIC50, MIC90 and the like: level of inhibition, or share of isolates inhibited. Zone: diameter of growth inhibition. An empty or dashed field is not shown. ECn is the concentration giving n% inhibition of infection, replication or growth. Neighbouring rows are from separate reports.

structure,conditions,read by,dose,organism,strain,mutations,read-out,value
O=C(O)/C=C/c1ccccc1,-,broth dilution / turbidity,-,Candida lusitaniae,PYCC 2705,-,EC50,0.1 µM
Clc1ccc(COC(Cn2ccnc2)c2ccc(Cl)cc2Cl)c(Cl)c1,-,broth dilution,-,Candida guilliermondii,Clinical isolates,-,MIC,0.5 µg/mL
COC(=O)/C=C1/NN=C(c2ccccn2)N(c2ccccn2)C1=O,-,agar diffusion,-,Candida spp.,Clinical isolate,-,MIC50,32 µg/mL
O=C(O)c1cccc(-n2nnnc2SCc2cc([N+](=O)[O-])cc([N+](=O)[O-])c2)c1,24 h,broth dilution,-,Candida krusei,E28,-,EC80,>500 µM
Nc1nc(=O)n([C@H]2CS[C@@H](CO)O2)cc1F,-,-,-,Candida tropicalis,54 isolates,-,MIC50,0.25 µg/mL
C[C@H]1[C@H](O)[C@@H](C)/C=C/C=C/C=C/C=C/C=C/C=C/C=C/[C@H](O[C@@H]2O[C@H](C)[C@@H](O)[C@H](N)[C@@H]2O)C[C@@H]2O[C@](O)(C[C@@H](O)C[C@@H](O)CC[C@H](O)[C@@H](O)C[C@@H](O)CC(=O)O[C@H]1C)C[C@H](O)[C@H]2C(=O)O,-,broth dilution,-,Candida guilliermondii,Clinical isolates,-,MIC,0.5 µg/mL
O=[N+]([O-])c1cc(CSc2nnnn2C2CCCCC2)cc([N+](=O)[O-])c1,48 h,broth dilution,-,Candida glabrata,20/I,-,EC80,>500 µM
CC(=O)N/N=C(\C)c1ccc(-n2ccnc2)cc1,-,broth dilution,-,Candida glabrata,ATCC 2001,-,MIC50,>1030 µM
O=[N+]([O-])c1ccc(C[Se]c2nnnn2C2CCCCC2)c([N+](=O)[O-])c1,24 h,broth dilution,-,Candida tropicalis,156,-,EC80,>500 µM
c1ccc([Se][Se]c2ccccc2)cc1,-,broth dilution,-,Candida dubliniensis,-,-,MIC,2–8 µg/mL
O=C(Cc1ccccc1[N+](=O)[O-])NCCc1ccc2c(c1)OCO2,-,broth dilution,-,Candida albicans,Clinical isolate,Fluconazole-resistant,MIC80,>64 µg/mL
CCOC(=O)C1C(c2ccccc2)CC(c2ccc(OC)cc2)=CC12NCCN2,-,-,-,Candida spp.,Strains 6 and 6,-,MIC,12.5 µg/mL
CC(C)(C)c1ccc(C[N+]2(C)CCc3cc4c(cc3C2)OCO4)cc1.[Br-],-,broth dilution,-,Candida albicans,Clinical isolate,Fluconazole-resistant,MIC80,>64 µg/mL
COc1ccc2c(Cc3ccc(C(C)C)cc3)c3[n+](cc2c1OCc1cc(F)c(F)c(F)c1)CCc1cc2c(cc1-3)OCO2,-,broth dilution,-,Candida lusitaniae,ATCC 42720,-,MIC,8 µg/mL
COc1ccc(C(OC)C(O)c2cc(OC)c(OC)c(OC)c2)cc1,-,broth dilution,-,Candida guilliermondii,Clinical isolate,-,MIC,50 µg/mL
C[C@@H]1[C@H](O)[C@@H](C)/C=C/C=C/CC/C=C/C=C/C=C/C=C/C(O[C@H]2O[C@H](C)[C@@H](O)[C@H](N)[C@@H]2O)CC2O[C@](O)(CC(O)C(O)CCC(O)CC(O)CC(O)CC(=O)O[C@H]1C)CC(O)C2C(=O)O,-,broth dilution,-,Candida dubliniensis,CBS 7987,-,MIC,3.9 µg/mL
Cc1c(OCC(F)(F)F)ccnc1CS(=O)c1nc2ccccc2[nH]1,-,-,-,Candida spp.,Clinical isolates,-,MIC,128 µg/mL
Cc1ccc(C(C)C)cc1,-,broth dilution,-,Candida dubliniensis,-,-,MIC,22600 µg/mL
Brc1ccc(C[N+]2(CCc3ccccc3)CCc3cc4c(cc3C2)OCO4)cc1.[Br-],-,broth dilution,-,Candida albicans,Clinical isolate,Fluconazole-resistant,MIC80,>64 µg/mL
C/C=C/Cc1ccc(OC)cc1,-,broth dilution,-,Candida dubliniensis,-,-,MIC,1150 µg/mL
C/C(=N\NC(=O)c1ccc(Cl)cc1)c1ccc(-n2ccnc2)cc1,-,broth dilution,-,Candida glabrata,ATCC 2001,-,MIC50,1.4 µM
CC(C)CCOc1ccc(C2CC(=O)c3c(O)cc(O)cc3O2)cc1,-,agar diffusion / agar,100 µg/mL,Candida dubliniensis,-,-,zone,0 mm
O=C(N/N=C\n1ccnc1)c1ccccc1,-,broth dilution,-,Candida glabrata,ATCC 2001,-,MIC50,<1.2 µM
C[C@@H](c1nc(-c2ccc(C#N)cc2)cs1)[C@](O)(Cn1cnnc1)c1ccc(F)cc1F,-,-,-,Candida albicans,Isogenic isolate 13 Erg11 (4-5X) R467K,-,MIC,0.03 µg/mL
COc1ccc2c(Cc3ccc(C(C)C)cc3)c3[n+](cc2c1OC)CCc1cc2c(cc1-3)OCO2,-,broth dilution,-,Candida lusitaniae,ATCC 42720,-,MIC,8 µg/mL
O=C(N/N=C/c1ccc(-n2ccnc2)cc1)c1ccc([N+](=O)[O-])cc1,-,broth dilution,-,Candida glabrata,ATCC 2001,-,MIC50,>745.6 µM
O=C(O)c1ccccc1O,-,broth dilution / turbidity,-,Candida parapsilosis,PYCC 2545,-,EC50,0.25 µM
C[C@@H]1[C@H](O)[C@@H](C)/C=C/C=C/CC/C=C/C=C/C=C/C=C/C(O[C@H]2O[C@H](C)[C@@H](O)[C@H](N)[C@@H]2O)CC2O[C@](O)(CC(O)C(O)CCC(O)CC(O)CC(O)CC(=O)O[C@H]1C)CC(O)C2C(=O)O,-,-,-,Candida spp.,MTCC 1962,-,MIC,150 µg/mL
O=[N+]([O-])c1cc(C[Se]c2nnnn2Cc2ccccc2)cc([N+](=O)[O-])c1,48 h,broth dilution,-,Candida glabrata,20/I,-,EC80,>500 µM
CC(=O)N/N=C/c1ccc(-n2ccnc2)cc1,-,broth dilution,-,Candida glabrata,ATCC 2001,-,MIC50,>1100 µM
CCOC(=O)C1C(c2ccc(C)cc2)CC(c2ccc(Cl)cc2)=CC12NCCN2,-,-,-,Candida neoformans,-,-,MIC,6.25 µg/mL
COc1ccc2c(Cc3ccc(C(C)C)cc3)c3n(cc-2c1=O)CCc1cc2c(cc1-3)OCO2,-,broth dilution,-,Candida lusitaniae,ATCC 42720,-,MIC,8 µg/mL
CC[C@@H]([C@H](C)O)n1ncn(-c2ccc(N3CCN(c4ccc(OC[C@@H]5CO[C@@](Cn6cncn6)(c6ccc(F)cc6F)C5)cc4)CC3)cc2)c1=O,-,broth dilution,-,Candida guilliermondii,Clinical isolates,-,MIC,0.25 µg/mL
COc1c(CC=C(C)C)c(O)cc2occ(-c3ccc4c(c3)OCO4)c(=O)c12,-,broth dilution,-,Candida guilliermondii,Clinical isolate,-,MIC,25 µg/mL
C[C@@H]1[C@H](O)[C@@H](C)/C=C/C=C/CC/C=C/C=C/C=C/C=C/C(O[C@H]2O[C@H](C)[C@@H](O)[C@H](N)[C@@H]2O)CC2O[C@](O)(CC(O)C(O)CCC(O)CC(O)CC(O)CC(=O)O[C@H]1C)CC(O)C2C(=O)O,-,broth dilution,-,Candida albicans,MD 37,-,MIC100,64 µg/mL
OC(Cn1cncn1)(Cn1cncn1)c1ccc(F)cc1F,-,broth dilution,-,Candida albicans,YL 319,-,MIC,512 µg/mL
C[C@@H]1[C@H](O)[C@@H](C)/C=C/C=C/CC/C=C/C=C/C=C/C=C/C(O[C@H]2O[C@H](C)[C@@H](O)[C@H](N)[C@@H]2O)CC2O[C@](O)(CC(O)C(O)CCC(O)CC(O)CC(O)CC(=O)O[C@H]1C)CC(O)C2C(=O)O,-,agar diffusion / agar,100 µg/mL,Candida dubliniensis,-,-,zone,0 mm
CCOC(=O)C1C(c2ccccc2)CC(c2ccccc2)=CC12NCCN2,-,-,-,Candida spp.,Strains 6 and 6,-,MIC,200 µg/mL
O=Cc1cccc(O)c1O,-,broth dilution / turbidity,-,Candida parapsilosis,ATCC 22019,-,EC50,0.08 µM
C[C@H](Cc1ccc(O)c(O)c1)[C@@H](C)Cc1ccc(O)c(O)c1,-,broth dilution,-,Candida albicans,CCC 127-2000,-,MIC50,125 µg/mL
C[C@H]1[C@H](O)[C@@H](C)/C=C/C=C/C=C/C=C/C=C/C=C/C=C/[C@H](O[C@@H]2O[C@H](C)[C@@H](O)[C@H](N)[C@@H]2O)C[C@@H]2O[C@](O)(C[C@@H](O)C[C@@H](O)CC[C@H](O)[C@@H](O)C[C@@H](O)CC(=O)O[C@H]1C)C[C@H](O)[C@H]2C(=O)O,-,-,-,Candida tropicalis,54 isolates,-,MIC90,2 µg/mL
O=[N+]([O-])c1cc(CSc2nnnn2-c2ccc(Cl)c(Cl)c2)cc([N+](=O)[O-])c1,48 h,broth dilution,-,Candida glabrata,20/I,-,EC80,>125 µM
COc1cc(C2CC(=O)c3c(O)cc(O)cc3O2)ccc1OCC=C(C)C,-,agar diffusion / agar,100 µg/mL,Candida dubliniensis,-,-,zone,0 mm
C/C=C/c1ccc(O)c(OC)c1,-,broth dilution,-,Candida dubliniensis,-,-,MIC,110 µg/mL
CCOC(=O)C1C(c2ccc(Cl)cc2)CC(c2ccccc2)=CC12NCCN2,-,-,-,Candida neoformans,-,-,MIC,200 µg/mL
COc1ccc2c(c1OC)C[N+]1(Cc3ccccc3C)CCc3cc4c(cc3C1C2)OCO4.[Br-],-,broth dilution,-,Candida albicans,Clinical isolate,Fluconazole-resistant,MIC80,>64 µg/mL
COc1cc(C)ccc1O,-,broth dilution,-,Candida dubliniensis,-,-,MIC,670 µg/mL

Again, the opening 7 rows:

| structure | conditions | read by | dose | organism | strain | mutations | read-out | value |
|---|---|---|---|---|---|---|---|---|
| O=C(O)/C=C/c1ccccc1 | - | broth dilution / turbidity | - | Candida lusitaniae | PYCC 2705 | - | EC50 | 0.1 µM |
| Clc1ccc(COC(Cn2ccnc2)c2ccc(Cl)cc2Cl)c(Cl)c1 | - | broth dilution | - | Candida guilliermondii | Clinical isolates | - | MIC | 0.5 µg/mL |
| COC(=O)/C=C1/NN=C(c2ccccn2)N(c2ccccn2)C1=O | - | agar diffusion | - | Candida spp. | Clinical isolate | - | MIC50 | 32 µg/mL |
| O=C(O)c1cccc(-n2nnnc2SCc2cc([N+](=O)[O-])cc([N+](=O)[O-])c2)c1 | 24 h | broth dilution | - | Candida krusei | E28 | - | EC80 | >500 µM |
| Nc1nc(=O)n([C@H]2CS[C@@H](CO)O2)cc1F | - | - | - | Candida tropicalis | 54 isolates | - | MIC50 | 0.25 µg/mL |
| C[C@H]1[C@H](O)[C@@H](C)/C=C/C=C/C=C/C=C/C=C/C=C/C=C/[C@H](O[C@@H]2O[C@H](C)[C@@H](O)[C@H](N)[C@@H]2O)C[C@@H]2O[C@](O)(C[C@@H](O)C[C@@H](O)CC[C@H](O)[C@@H](O)C[C@@H](O)CC(=O)O[C@H]1C)C[C@H](O)[C@H]2C(=O)O | - | broth dilution | - | Candida guilliermondii | Clinical isolates | - | MIC | 0.5 µg/mL |
| O=[N+]([O-])c1cc(CSc2nnnn2C2CCCCC2)cc([N+](=O)[O-])c1 | 48 h | broth dilution | - | Candida glabrata | 20/I | - | EC80 | >500 µM |